Results of single-concentration screens

Measurements from “University of Dundee, Small-Polar-MMV Screening Library” (2021), ChEMBL document CHEMBL3988442.

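Phenotypic screen: M. tuberculosis growth, cholesterol and DPPC medium, 4 days; the read-out is not stated. Tested at 500 µM. Direction is inferred from retests: higher values go with more growth inhibition. Of about 18,000 compounds tested this way, about 900 (5%) reached 50% or more in at least one test.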

Each number is a percent effect as filed. The record does not define 0% and 100%; most values in the screen are far below 50% and negative numbers occur (in some assays of this library far below -100). This is part of a subset picked to be rich in strong results.

compound | percent effect
Cc1noc(C)c1CC(=O)N(C)C(C)c1ccncc1 (stereo not drawn) | -7.97
O=C(c1ccccn1)N1CCC2(CCCCO2)CC1 | 9.517
CC(CN)c1nc(-c2ccccc2)no1 (stereo not drawn) | 60.85
CC(N)c1coc2ccccc12 (stereo not drawn) | 13.27
CCCC(C#N)NC(=O)c1cnn(C)c1 (stereo not drawn) | 2.221
Nc1ncccc1CN1CCC(N2CCCCC2)C1 (stereo not drawn) | -39.26
CCC(=O)NCc1ccc(-n2cncn2)nc1 | -2.678
CC(C)N(CC(N)=O)CC(=O)N(C1CCCC1)C1CC1 | -11.53
CC(C)N1CC(O)C1 | -2.817
NCCNS(=O)(=O)c1ccc(-c2ccccc2)cc1 | 78.57
NCCNS(=O)(=O)c1ccccc1 | 4.548
COc1ccc(C(=O)N2CCNCC2)cc1OC | -2.193
COc1c(C)cc(Br)cc1C(=O)Nc1nnn(C)n1 | 58.94
O=C(CCN1CCCCC1)c1ccc2c(c1)OCO2 | 28.48
c1nnc(SC2CCOCC2)s1 | 10.51
O=C(Nc1nnc[nH]1)c1ccc(N2CCOCC2)nc1 | 0.4795
CC1(C)CN(c2ncccc2C#N)CCO1 | 2.277
O=C(c1cn(C2CNC2)nn1)N1CCCC1 | -11.24
O=C(C1CCOCC1)N1CCCC(c2ncc[nH]2)C1 (stereo not drawn) | 3.628
CCOc1nnc(CN2CCC(C(N)=O)CC2)s1 | 23.64
CCn1c(SCC(N)=O)nnc1-c1cccnc1 | -4.544
COCC(C)NC(=O)OCC(F)(F)F (stereo not drawn) | -8.76
CC(C#N)NC(=O)c1sccc1OC(F)F (stereo not drawn) | -4.818
CC1Cc2ccccc2N1S(C)(=O)=O (stereo not drawn) | 15.59
Cc1noc(C)c1CN1CCOCC1(C)CO (stereo not drawn) | 11.28
CN1CC2(CCN(CCOCCO)CC2)OC1=O | 9.466
O=C(Cn1cnnn1)N(CC1CCOC1)C1CC1 (stereo not drawn) | 4.104
CCC[C@H]1CN(C(=O)Cc2cccc(OC)c2)C[C@@H]1N | 21.76
CC(C)(CN)C1(O)CCCOC1 (stereo not drawn) | -1.055
Cn1ncnc1CN1CCCC1C(=O)N1CCSCC1 (stereo not drawn) | 6.352
COc1ncccc1C(=O)N1CCc2[nH]ncc2C1 | -11.17
COCCn1cnnc1CCNc1ncccn1 | -34.62
Cc1n[nH]cc1CNC(=O)C(C)N(C)CC(F)(F)F (stereo not drawn) | -0.5327
CC(C)Oc1cc(CN)ccn1 | 20.67
CCOc1ccccc1NC(=O)NC1CCN(C)CC1 | 19.42
CC(C)c1ccc2c(c1)C(N)C(=O)N2 (stereo not drawn) | 50.54
CN(C)C(=O)CN1CCCC(CO)(CC2CC2)C1 (stereo not drawn) | 2.499
CC(CNc1cccc(F)c1C#N)S(N)(=O)=O (stereo not drawn) | 5.203
CC(=O)NCCNC(=O)N1CCc2sccc2C1 | -9.367
CC(C(=O)Nc1ccc(C#N)cc1)N1CCC(O)CC1 (stereo not drawn) | 13.39
c1cc(NCC2CCCO2)ccn1 (stereo not drawn) | 8.56
NC(c1ccc2c(c1)OCCO2)C1CC1 (stereo not drawn) | 6.069
CC(C)c1cccc(NC(=O)CN2CCN(C)CC2)c1 | 27.04
CCc1nccn1CCNC(=O)CN1CCCC(O)C1 (stereo not drawn) | -0.9801
CN(C(=O)CN)c1ccc(-c2ccccc2)cc1 | 76.43
CC(O)COc1ccccc1CN (stereo not drawn) | -3.582
Cn1nnnc1SCCC(=O)Nc1ccc(F)cc1 | 3.008
CC(C)CNc1nc(N)c2cn[nH]c2n1 | 73.6
CCC(=O)c1ccc(CN)cc1 | 53.14
NCCC1CCCN(C(=O)c2c(O)cccc2O)C1 (stereo not drawn) | 5.649
COCC1CCN(C(=O)c2cc(C3CC3)on2)CC1 | 61.28
CN(C)C(=O)NCCNC(=O)NCc1ccco1 | 10.02
CCOc1cccc(CCNC(=O)N(C)C(C)C)n1 | 18.07
NC(=O)C1CCN(C(=O)COC(=O)c2cccs2)CC1 | -1.772
O=C(NCCSc1ccccn1)C1CCCCO1 (stereo not drawn) | 36.59
CCC(CC)C(=O)Nc1ccon1 | 11.9
O=C(Nc1nccs1)N1CCC2(CC1)OCCO2 | 10.57
CCc1ncc2c(n1)CNCC2 | -41.55
Cc1cc(=O)n2nccc2[nH]1 | -7.83
NC1CCCN(CCS(=O)(=O)c2ccc(Br)cc2)C1 (stereo not drawn) | 24.9
CC(C)n1[nH]c(-c2ccccc2)cc1=N | -7.843
c1cncc(-c2nc(SCC3CCCCO3)n[nH]2)c1 (stereo not drawn) | 64.46
Cc1cccc(C(=O)NCCCNS(C)(=O)=O)c1O | 17.64
CC(c1ccccn1)N(C)C(=O)c1nccnc1N (stereo not drawn) | 8.654
COc1ccc(C2=NOC(C(=O)NC(C)C)C2)cc1 (stereo not drawn) | 6.842
O=C(NCC(O)C1CC1)c1ccccc1C(F)(F)F (stereo not drawn) | -4.722
NC1CC(c2cc(NCCCc3ncc[nH]3)ncn2)C1 (stereo not drawn) | 4.591
CN1CCCC1CC(=O)NCc1ccc(CN)cc1 (stereo not drawn) | -9.357
Cc1cc(NC2CCN(C)C2=O)nc2ccccc12 (stereo not drawn) | -11.04
CCOc1ccc(S(=O)(=O)NCCC(C)N)c(C)c1 (stereo not drawn) | 6.892
Cc1cccnc1CSc1nnnn1CC1CCCO1 (stereo not drawn) | 12.34
N#Cc1ccccc1N1CCCC(N)C1 (stereo not drawn) | 63.65
O=C1CCCCN1CC1CCNCC1 | -8.06
CN(C)C(=O)N1CCC(C(=O)N2CCCC2)CC1 | 16.32
O=C(NCCCc1ccccc1)C1CNCCO1 (stereo not drawn) | 2.675
NC1CCCN(S(=O)(=O)C=Cc2cccc(Cl)c2)C1 (stereo not drawn) | 70.48
Cc1nnc(SCC=Cc2ccccc2)n1CC(N)=O | -6.213
CSCC(=O)N1CCCC(c2nccn2C)C1 (stereo not drawn) | -13.6
OCC1CNc2c(F)cccc2C1 (stereo not drawn) | 3.896
Cc1noc(COC2CNC2)n1 | -1.561
C[C@@H]1CN(C(=O)CCc2cnn(C)c2)C[C@]1(C)O | 12.4
CN(C)C(CCN)c1ccccc1 (stereo not drawn) | 10.98
CS(=O)(=O)CCN(CC(O)c1ccccc1)C1CC1 (stereo not drawn) | -14.5
COc1ccccc1CCNC1CCN(C(C)=O)CC1 | 5.36
COc1cccc(CCC(=O)N2CCCC2)c1 | 69.53
Cc1ncsc1C(=O)NCC1CN(CC(C)C)CCO1 (stereo not drawn) | -3.849
CCSc1cc(Cl)ccc1C(=O)NCCC(N)=O | -0.693
CCNCc1ccc(OCC(N)=O)cc1 | -8.486
O=C(Cc1cccc(O)c1)NCCCN1CCOCC1 | 10.26
CC(C)OCc1nnc(C(C)N)o1 (stereo not drawn) | -10.01
CC(NC(N)=O)C(=O)NCCc1ccc(Cl)cc1 (stereo not drawn) | 37.68
OC1(c2nc(-c3cnccn3)no2)CCCCC1 | -9.104
NC(=O)N1CCCC(C(=O)Nc2cc(Br)ccc2F)C1 (stereo not drawn) | 31.38
Cc1cccc(C2(O)CCNCC2)c1C | 3.315
NC(=O)CCC(=O)c1ccc2c(c1)OCCO2 | 14.9
Cc1cccc(OCC(O)CN)c1 (stereo not drawn) | 29.65

For reference, 9 entries once more:

CC(C(=O)Nc1ccc(C#N)cc1)N1CCC(O)CC1 (stereo not drawn) read 13.39%.
Cc1ncsc1C(=O)NCC1CN(CC(C)C)CCO1 (stereo not drawn) read -3.849%.
O=C(c1cn(C2CNC2)nn1)N1CCCC1 read -11.24%.
CC(C)CNc1nc(N)c2cn[nH]c2n1 read 73.6%.
O=C(CCN1CCCCC1)c1ccc2c(c1)OCO2 read 28.48%.
CCn1c(SCC(N)=O)nnc1-c1cccnc1 read -4.544%.
CC(CNc1cccc(F)c1C#N)S(N)(=O)=O (stereo not drawn) read 5.203%.
CCC(=O)c1ccc(CN)cc1 read 53.14%.
NC(=O)CCC(=O)c1ccc2c(c1)OCCO2 read 14.9%.